{"source": "patent US8404449B2", "about": "“Stochastic sensing through covalent interactions” (dated 2013)", "key": {"[1]": {"tested_on": "PSH (T117C-D8)1(RL2)6 engineered αHL pore", "details": "1.5 mM BAL added to 10 μM arsenical"}, "Cys-117 of PSH": {"tested_on": "Cys-117 of PSH", "experiment": "rate of reaction of DTNB with Cys-117 of PSH (Step 1), single-channel recording", "details": "DTNB trans, 50 μM DTT cis; −50 mV; 2 M KCl, 30 mM MOPS, pH 8.5; n=5"}, "[2]": {"tested_on": "mixed disulfide 1 (DTNB/PSH complex)", "experiment": "rate of reaction of DTT with mixed disulfide 1 (Step 2), single-channel recording", "details": "DTT trans, 50 μM DTNB cis; −50 mV; pH 8.5"}, "PSH pore": {"tested_on": "PSH pore", "experiment": "interaction of MTSES, DTT and PSH, single pore current trace", "details": "2.5 mM trans, 50 μM DTT cis; −50 mV; pH 8.5"}, "wild type αHL pore": {"target": "wild type αHL pore (Staphylococcus aureus, UniProt P09616)", "experiment": "single-channel electrical recording with completely wild type αHL pore", "details": "pore contains no lumen Cys residues"}}}
{"compound": "OCC(S)CS", "note": "(centres unmarked)", "values": [{"measurement": "effect on coupling events of 4-sulfophenylarsine oxide with PSH", "setting": "[1]", "value": "coupling events were eliminated"}]}
{"compound": "O=C(O)c1cc(SSc2ccc([N+](=O)[O-])c(C(=O)O)c2)ccc1[N+](=O)[O-]", "values": [{"measurement": "k1-obs (1/τ1[DTNB])", "setting": "Cys-117 of PSH", "value": "4.9+/−0.5×10^3 M^−1s^−1"}]}
{"compound": "O[C@H](CS)[C@H](O)CS", "values": [{"measurement": "k2-obs (1/τ2[DTT])", "setting": "[2]", "value": "1.1+/−0.1×10^4 M^−1s^−1"}]}
{"compound": "(2-sulfonatoethyl)methane thiosulfonate", "values": [{"measurement": "interaction with PSH pore", "setting": "PSH pore", "value": "bound to the PSH pore, thereby blocking it"}]}
{"compound": "O=[AsH2]c1ccc(S(=O)(=O)O)cc1", "values": [{"measurement": "coupling events with wild type pore", "setting": "wild type αHL pore", "value": "not observed"}]}
